How the values were obtained:
[1] = molecular target: α-hemolysin (M113R)7/am7-βCD transient complex (Staphylococcus aureus, UniProt P09616, M139R); details: for Current level (L3) on nucleotide binding: 5 μM nucleotide in cis chamber, 40 μM am7-βCD trans, not normalised; for Probability of the added nucleotide to be detected as A (Aread) / Probability of the added nucleotide to be detected as C (Cread) / Probability of the added nucleotide to be detected as G (Gread) / Probability of the added nucleotide to be detected as T (Tread): from overlap of Gaussian distributions, all 4 nucleotides present; for Order of all point histogram current amplitudes among XMP: ribonucleotides, +110 mV, pH 8.0, 1M KCl
[2] = molecular target: αHL-M113R single nanopore with unmodified β-cyclodextrin (Staphylococcus aureus, UniProt P09616, M139R); details: β-cyclodextrin 40 μM trans; dXMPs up to 300 μM trans or cis
[3] = molecular target: α-hemolysin (M113R)7 pore (Staphylococcus aureus, UniProt P09616, M139R)
[4] = molecular target: α-hemolysin (M113N)7 (Staphylococcus aureus, UniProt P09616, M139N)

| Compound | Probability of the added nucleotide to be detected as A (Aread) [1] | Probability of the added nucleotide to be detected as C (Cread) [1] | Probability of the added nucleotide to be detected as G (Gread) [1] | Probability of the added nucleotide to be detected as T (Tread) [1] | further results |
| --- | --- | --- | --- | --- | --- |
| Nc1ccn([C@H]2C[C@H](O)[C@@H](COP(=O)(O)O)O2)c(=O)n1 | 0.06 | 0.94 | 0 | 0 | Current level (L3) on nucleotide binding ([1]; +130 mV): 22±1 pA |
| Nc1nc2c(ncn2[C@@H]2O[C@H](COP(=O)(O)O)[C@@H](O)[C@H]2O)c(=O)[nH]1 | – | – | – | – | Order of all point histogram current amplitudes among XMP [1]: lowest current (largest blocking) |
| β-cyclodextrin | – | – | – | – | Further current blocking events / nucleotide detection with unmodified β-cyclodextrin [2]: does not yield any detection; Cyclodextrin binding to the pore (current blocking events) ([3]; 40 μM in trans chamber): current blocking events due to cyclodextrin binding were observed |
| Cc1cn([C@H]2C[C@H](O)[C@@H](COP(=O)(O)O)O2)c(=O)[nH]c1=O | 0.11 | 0 | 0.06 | 0.83 | Types of binding events at pH 7.5 ([1]; pH 7.5, Tris-HCl 1M KCl): two types of events with different amplitudes |
| Nc1nc2c(ncn2[C@H]2C[C@H](O)[C@@H](COP(=O)(O)O)O2)c(=O)[nH]1 | 0 | 0 | 0.88 | 0.12 | Current level (L3) on nucleotide binding ([1]; +130 mV): 16 pA; Relative current block among the four dXMP ([1]; +130 mV): blocks the most current |
| Nc1ccn([C@@H]2O[C@H](COP(=O)(O)O)[C@@H](O)[C@H]2O)c(=O)n1 | – | – | – | – | Order of all point histogram current amplitudes among XMP [1]: highest current amplitude (smallest blocking) |
| Nc1ncnc2c1ncn2[C@H]1C[C@H](O)[C@@H](COP(=O)(O)O)O1 | 0.74 | 0.07 | 0 | 0.19 | – |
| heptakis-6-amino-β-cyclodextrin | – | – | – | – | Current level (L2) of reversible blocking events on adaptor binding ([3]; 40 μM in trans chamber, +130 mV, 1M KCl, pH 8.0): 65±5 pA; Share of conductance in current level L2′ when the adapter is bound ([3]; pH 8.0, 40 μM trans, +130 mV): less than 15%; Binding of adaptor to (M113N)7 [4]: bind |
